Source: article PMC12439581 (mAbs, 2025)

Assays:
[1] = target: biotinylated α-bungarotoxin from Bungarus multicinctus (Bungarus multicinctus, UniProt P60615, biotin (NHS-PEG4-biotin, amine coupling; sites not stated)); experiment: DELFIA (dissociation-enhanced lanthanide fluorescence immunoassay)
[2] = target: α-cobratoxin from Naja kaouthia (Naja kaouthia, UniProt P01391); details: both partners purified

B1: C05 scFv with T31D (CDR-L1) (scFv, V domains shown)
VH: QVQLVQSGAEVKKPGSSVKVSCKASGGTFSSYAISWVRQAPGQGLEWMGGIIPIFGTANYAQKFQGRVTITADESTSTAYMELRSLRSDDTAVYYCARDNLGYCSGGSCYSDYYYYYMDVWGQGTLVTVSS
VL: NFMLTQPHSVSESPGKTVTISCTRSSGSIASDYVHWYQQRPGSAPTTVIYEDNQRPSGVPDRFSGSIDSSSNSASLTISGLKTEDEADYYCQSYDSSNGSVVFGGGTKLTVL
notes: source: E. coli BL21(DE3), in culture supernatant
B1: binds [1].

B2: D11-Y32A-Y49H scFv (scFv, V domains shown)
VH: QVQLVQSGAEVKKPGSSVKVSCKASGGTFSSYAISWVRQAPGQGLEWMGGIIPIFGTANYAQKFQGRVTITADESTSTAYMELRSLRSDDTAVYYCARDNLGYCSGGSCYSDYYYYYMDVWGQGTLVTVSS
VL: NFMLTQPRSVSESPGKTVTISCTRSSGSIGSDAVHWYQQRPGSSPTTVIHEDNQRPSGVPDRFSGSIDSSSNSASLTISGLKTEDEADYYCQSYDRSNHEVVFGGGTKLTVL
B2: binds [2].
